Test results from PMC8557866, “Novel Small Molecule Growth Inhibitor Affecting Bacterial Outer Membrane Reduces Extraintestinal Pathogenic Escherichia coli (ExPEC) Infection in Avian Model” (Microbiology Spectrum, 2021).

Key:
[1] = tested on: serum metabolites of chickens; experiment: Effect of GIs on serum metabolome of chickens (LC-MS); type: in vivo; details: vs NC chickens
[2] = tested on: cecal microbiota of chickens; experiment: Effect of GIs on cecal microbiota of chickens (16S rRNA metagenomics); type: in vivo
[3] = family level, individual animal 1 of group
[4] = family level, individual animal 2 of group
[5] = family level, individual animal 3 of group
[6] = family level, individual animal 4 of group
[7] = family level, individual animal 5 of group

## COc1ccc(CNCc2cccc(C(F)(F)F)c2)cc1OCC(O)CN1CCCC1 (centres unmarked) [GI-7]
[1]
  Fold change: 15S-Hydroxypentaenoate: −1.3
  Fold change: 19-Hydroxytestosterone: −2.4
  Fold change: (15R)-Hydroxypentaenoate: −1.3
  Fold change: L-Arginine: 1.0
  Fold change: Linoleate: −1.8
  Fold change: Oleate: 2
  Fold change: α-Carboxyethylhydroxychroman: −2.8
[2]; cecum, class level, printed as change 4% to 14%
  Bacilli abundance: 14%
[2]; cecum, family level, printed as change 1% to 11%
  Lactobacillaceae population: 11%
[2]; cecum, order level, printed as change 4% to 14%
  Lactobacillales abundance: 14%
[2]; cecum, species, printed as change 0% to 4%
  Lactobacillus helveticus abundance: 4%
[2]; cecum, species, printed as change 0% to 7%
  Lactobacillus zeae abundance: 7%
[2]; [3]
  Relative abundance (%) Bacillaceae: 0.0%
  Relative abundance (%) Bifidobacteriaceae: 0.0%
  Relative abundance (%) Clostridiaceae 1: 0.0%
  Relative abundance (%) Enterobacteriaceae: 13.2%
  Relative abundance (%) Enterococcaceae: 5.4%
  Relative abundance (%) Erysipelotrichaceae: 0.0%
  Relative abundance (%) Lachnospiraceae: 41.6%
  Relative abundance (%) Lactobacillaceae: 11.5%
  Relative abundance (%) Non-Enterobacteriaceae Gammaproteobacteria: 0.0%
  Relative abundance (%) Peptostreptococcaceae: 11.1%
  Relative abundance (%) Ruminococcaceae: 16.9%
  Relative abundance (%) Unassigned: 0.0%
[2]; [4]
  Relative abundance (%) Bacillaceae: 0.0%
  Relative abundance (%) Bifidobacteriaceae: 0.0%
  Relative abundance (%) Clostridiaceae 1: 0.0%
  Relative abundance (%) Enterobacteriaceae: 17.9%
  Relative abundance (%) Enterococcaceae: 0.0%
  Relative abundance (%) Erysipelotrichaceae: 0.0%
  Relative abundance (%) Lachnospiraceae: 62.5%
  Relative abundance (%) Lactobacillaceae: 13.0%
  Relative abundance (%) Non-Enterobacteriaceae Gammaproteobacteria: 0.0%
  Relative abundance (%) Peptostreptococcaceae: 0.0%
  Relative abundance (%) Ruminococcaceae: 6.4%
  Relative abundance (%) Unassigned: 0.0%
[2]; [5]
  Relative abundance (%) Bacillaceae: 3.0%
  Relative abundance (%) Bifidobacteriaceae: 0.0%
  Relative abundance (%) Clostridiaceae 1: 0.0%
  Relative abundance (%) Enterobacteriaceae: 5.5%
  Relative abundance (%) Enterococcaceae: 8.8%
  Relative abundance (%) Erysipelotrichaceae: 3.8%
  Relative abundance (%) Lachnospiraceae: 49.6%
  Relative abundance (%) Lactobacillaceae: 7.7%
  Relative abundance (%) Non-Enterobacteriaceae Gammaproteobacteria: 0.0%
  Relative abundance (%) Peptostreptococcaceae: 5.2%
  Relative abundance (%) Ruminococcaceae: 16.1%
  Relative abundance (%) Unassigned: 0.0%
[2]; [6]
  Relative abundance (%) Bacillaceae: 0.0%
  Relative abundance (%) Bifidobacteriaceae: 0.0%
  Relative abundance (%) Clostridiaceae 1: 0.0%
  Relative abundance (%) Enterobacteriaceae: 23.4%
  Relative abundance (%) Enterococcaceae: 0.0%
  Relative abundance (%) Erysipelotrichaceae: 5.5%
  Relative abundance (%) Lachnospiraceae: 37.8%
  Relative abundance (%) Lactobacillaceae: 11.8%
  Relative abundance (%) Non-Enterobacteriaceae Gammaproteobacteria: 0.0%
  Relative abundance (%) Peptostreptococcaceae: 7.9%
  Relative abundance (%) Ruminococcaceae: 13.4%
  Relative abundance (%) Unassigned: 0.0%
[2]; [7]
  Relative abundance (%) Bacillaceae: 0.0%
  Relative abundance (%) Bifidobacteriaceae: 0.0%
  Relative abundance (%) Clostridiaceae 1: 0.0%
  Relative abundance (%) Enterobacteriaceae: 12.5%
  Relative abundance (%) Enterococcaceae: 0.0%
  Relative abundance (%) Erysipelotrichaceae: 5.3%
  Relative abundance (%) Lachnospiraceae: 59.6%
  Relative abundance (%) Lactobacillaceae: 10.9%
  Relative abundance (%) Non-Enterobacteriaceae Gammaproteobacteria: 0.0%
  Relative abundance (%) Peptostreptococcaceae: 0.0%
  Relative abundance (%) Ruminococcaceae: 11.5%
  Relative abundance (%) Unassigned: 0.0%
[2]; genus level
  Abundance (%) in cecal microbiota: Anaerostipes: 0.0%
  Abundance (%) in cecal microbiota: Anaerotruncus: 0.0%
  Abundance (%) in cecal microbiota: Bacillus: 0.6%
  Abundance (%) in cecal microbiota: Bifidobacterium: 0.0%
  Abundance (%) in cecal microbiota: Blautia: 1.8%
  Abundance (%) in cecal microbiota: Butyricicoccus: 4.0%
  Abundance (%) in cecal microbiota: CAG-56: 0.0%
  Abundance (%) in cecal microbiota: Caproiciproducens: 0.0%
  Abundance (%) in cecal microbiota: Clostridioides: 0.0%
  Abundance (%) in cecal microbiota: Clostridium sensu stricto 1: 0.0%
  Abundance (%) in cecal microbiota: Enterococcus: 2.9%
  Abundance (%) in cecal microbiota: Erysipelatoclostridium: 0.0%
  Abundance (%) in cecal microbiota: Escherichia -Shigella: 12.3%
  Abundance (%) in cecal microbiota: Flavonifractor: 3.8%
  Abundance (%) in cecal microbiota: Lachnoclostridium: 13.0%
  Abundance (%) in cecal microbiota: Lactobacillus: 11.02^a^,^b %
  Abundance (%) in cecal microbiota: Negativibacillus: 0.0%
  Abundance (%) in cecal microbiota: Oscillibacter: 3.0%
  Abundance (%) in cecal microbiota: Ruminiclostridium 9: 0.0%
  Abundance (%) in cecal microbiota: Ruminococcaceae UCG-005: 0.0%
  Abundance (%) in cecal microbiota: Ruminococcaceae UCG-014: 0.0%
  Abundance (%) in cecal microbiota: Sellimonas: 0.0%
  Abundance (%) in cecal microbiota: Shuttleworthia: 1.7%
  Abundance (%) in cecal microbiota: Tyzzerella: 0.0%
  Abundance (%) in cecal microbiota: UBA1819: 0.0%
  Abundance (%) in cecal microbiota: [Clostridium] inoculum group: 0.8%
  Abundance (%) in cecal microbiota: [Eubacterium] coprostanoligenes group: 1.5%
  Abundance (%) in cecal microbiota: [Ruminococcus] gauvreauii group: 3.0%
  Abundance (%) in cecal microbiota: [Ruminococcus] torques group: 24.8%
